Anti-infective test results gathered from many reports (values: NIAID ChemDB through PubChem).

Shared fields: host cell toxicity; cells: VERO; read-out: CC50

a–b is a range or a potency band. CCn: concentration that lowers growth or viability of the cells by n%. Blank or dashed fields: not listed here. Rows are shuffled and stem from different studies.

SMILES	read by	result
Clc1ccc(-c2cc3ccccn3c2)cc1Cl	MTT	391 µM
Cn1cc(NC(=O)c2cc(NC(=O)CCCCCCCCC(=O)Nc3cc(C(=O)Nc4cc(C(=O)NCCC(=N)N)n(C)c4)n(C)c3)cn2C)cc1C(=O)NCCC(=N)N	MTT	54.22 µM
CN(C)C(=O)CC(CSc1ccccc1)Nc1c(C(=O)N/N=C/c2ccc(F)cc2)cnc2cccc(C(F)(F)F)c12	MTT	>62.5 µg/mL
CC(C)(C)c1cn(CC(Oc2ccc(Cl)cc2)c2ccc(Cl)cc2Cl)nn1	MTT	>25 µg/mL
CCc1nc2ccccc2n1CCCSc1ccc(C)cc1	luminescence	24 µM
C[C@H]1C[C@H](O)C(Cl)/C=C\C=C\C(=O)Cc2c(Cl)c(O)cc(O)c2C(=O)O1		750 µM
CN(C)C(=O)CC(CSc1ccccc1)Nc1c(C(=O)N/N=C/c2cccnc2)cnc2cc(F)ccc12	MTT	>62.5 µg/mL
Cc1c(CN2CCSCC2)cc(-c2ccc(F)cc2)n1-c1ccc(Cl)cc1		8 µg/mL
COc1cc2c(cc1OC)CN(c1cc3c(cc1[N+](=O)[O-])c(=O)c(C(=O)O)c1n3CS1)CC2	MTT	66.56 µM
O=C(O)c1c([N+](=O)[O-])c(-c2ccccc2)n(COCCO)c1-c1ccccc1		>300 µM
Oc1ccccc1Cc1nc2ccccc2s1		62 µg/mL
O=C(O)c1c2n(c3cc(N4CCN(Cc5ccc6c(c5)OCO6)CC4)c(F)cc3c1=O)CS2	MTT	>133 µM
Nc1ccn(C[C@@H](CO)OCP(=O)(O)O)c(=O)n1		>100 µg/mL
CN(C)c1ccc(/C=N/N=C2\SC(CC(=O)O)C(=O)N2c2ccccc2)cc1		1000 µM
CCCCc1nc(Cl)c(C2C(C(=O)Nc3ccc(Cl)cc3)=C(C)NC(C)=C2C(=O)Nc2ccc(Cl)cc2)[nH]1	MTT	7.8 µg/mL
CCc1nc2ccccc2n1CCCCSc1ccc2ccccc2n1	luminescence	7 µM
C[C@H]1C[C@H]2O[C@@H]2CC/C=C/C(=O)Cc2c(Cl)c(O)cc(O)c2C(=O)O1		16 µM
Cc1cc(N/N=C/c2cc(C)n(-c3ccccc3)c2C)c2cc(C3CCCCC3)ccc2n1		6.6 µg/mL
O=C(O)c1c2n(c3cc(N4CCC(O)(c5ccc(Cl)cc5)CC4)c(F)cc3c1=O)CS2	MTT	135.6 µM
CCOC(=O)C1=C(C)NC(=S)NC1c1cn(-c2ccccc2)nc1-c1ccc([N+](=O)[O-])cc1		>10 µg/mL
CCCCCCCC/C=N/NC(=O)c1cnc2cc(F)ccc2c1NC(CSc1ccccc1)CC(=O)N(C)C	MTT	>62.5 µg/mL
O=[N+]([O-])c1c(-c2ccccc2)c(-c2ccccc2)n(COCCO)c1-c1ccccc1		43 µM
O=[N+]([O-])c1cccc(-c2cc3ccccn3c2)c1	MTT	100–200 µM
CCc1nc2ccc(C)cc2n1CCCSc1ccc(OC)cc1	luminescence	33 µM
CCOC(=O)c1c(Br)c(-c2ccccc2)n(COCCOC(C)=O)c1-c1ccccc1		47 µM
CCCCCc1nc2n(n1)C(c1ccccc1)CC(=O)N2		>50 µg/mL
OCCOCn1c(-c2ccccc2)c(Br)c(Br)c1-c1ccccc1		51 µM
O=C1CC(c2ccccc2)n2nc(-c3ccncc3)nc2N1		>50 µg/mL
Cc1c(CN2CCSCC2)cc(-c2ccccc2Cl)n1-c1ccccc1F		8 µg/mL
OC(c1ccccc1)c1nc2ccccc2s1		>500 µg/mL
Cc1cc(C)n2cc(-c3ccccc3)cc2c1	MTT	>500 µM
CC(C)(C)OC(=O)NC1C2CN(c3cc4c(cc3F)c(=O)c(C(=O)O)c3n4CS3)CC21	MTT	140 µM
N#CC1(c2ccccc2)CCCN1C(=O)c1ccccc1Br	absorbance	>100 µM
O=C(O)c1c2n(c3cc(N4CCC(n5c(=O)[nH]c6cc(Cl)ccc65)CC4)c([N+](=O)[O-])cc3c1=O)CS2	MTT	118 µM
CCCc1nc2n(n1)C(c1ccc([N+](=O)[O-])cc1)CC(=O)N2		>50 µg/mL
CN1CCN(c2cc3c(cc2[N+](=O)[O-])c(=O)c(C(=O)O)c2n3CS2)CC1c1ccccc1	MTT	69.06 µM
CC(O)(c1ccccc1)c1nc2ccccc2o1		31 µg/mL
c1ccc(CCN2CCN([C@@H](Cc3ccccc3)CN3CCCC3CN3CCNC[C@@H]3Cc3ccccc3)C[C@H]2Cc2ccccc2)cc1		0.97 µg/mL
Cc1ccc(/C=N/N=C2\SC(CC(=O)O)C(=O)N2c2ccccc2)cc1		1000 µM
Cc1c(CN2CCSCC2)cc(-c2ccccc2)n1-c1ccccc1		32 µg/mL
CCCCc1nc(Cl)c(C2C(C(=O)Nc3ccc(F)cc3)=C(C)NC(C)=C2C(=O)Nc2ccc(F)cc2)[nH]1	MTT	>10 µg/mL
CCCCc1ccc2cc(-c3ccccc3)cn2c1	MTT	>500 µM
CCCCOC(=O)c1cc(COc2cc(C(F)(F)F)nc3c(C(F)(F)F)cccc23)on1		105.9 µM
COC(=O)CSc1nnc(-c2ccc([N+](=O)[O-])o2)s1		2.3 µg/mL
c1csc(-c2cc3ccccn3c2)c1	MTT	90 µM
Cc1c(CN2CCSCC2)cc(-c2ccc(F)cc2)n1-c1ccc(F)cc1		8 µg/mL
C[C@H]1C/C=C/C(O)C/C=C/C(=O)Cc2c(Cl)c(O)cc(O)c2C(=O)O1		36 µM
O=C(NN1C(=O)CS(=O)(=O)C1c1ccc(C(F)(F)F)cc1)c1ccncc1	MTT	>160 µM
COc1ccc(C[C@@H](C)[C@H](C)Cc2ccc(OC)c(OC)c2)cc1OC		160 µM
CCOC(=O)c1cc(COc2cccc3ncccc23)on1		>128 µM
CCCCCC(=O)OC/C=C/c1ccc(OC(=O)CCCCC)c(OC)c1	luminescence	10.2 µg/mL
Clc1cccn2cc(-c3ccccc3)cc12	MTT	>500 µM
C[C@H]1C[C@H]2O[C@@H]2CCCCC(=O)Cc2c(Cl)c(O)cc(O)c2C(=O)O1		18 µM
O=C(N/N=C(\c1nc2ccc([N+](=O)[O-])cc2[nH]c1=O)C(O)c1ccc([N+](=O)[O-])cc1)c1ccncc1	MTT	>130 µM
CCc1nc2ccccc2n1CCCCSc1nnnn1C	luminescence	>50 µM
O=c1cc(-c2ccc(-c3ccccc3)cc2)oc2ccccc12		510 µg/mL
O=C1CC(c2ccccc2)n2nc(-c3ccc4ccccc4c3)nc2N1		>50 µg/mL
c1ccc(OCCCCn2ccnc2)cc1	luminescence	>50 µM
COc1ccc2nc(-c3ccccc3)cc(NN)c2c1		3.78 µg/mL
COc1cc2c(cc1OC)C1=NN(C(=O)Nc3ccc(Cl)cc3)C(c3ccccc3)C1C2	MTT	>139.4 µM
COc1ccc(CNC(=O)c2c(C)n([O-])c3cc(F)c(F)cc3[n+]2=O)cc1		>16.6 µg/mL
O=C(O)CC1S/C(=N\N=C\c2ccccc2F)N(c2ccccc2)C1=O		2000 µM
NNc1ccnc2ccc(C3CCCCC3)cc12		10.28 µg/mL
CCCc1nc2n(n1)C(c1ccc(OC)cc1)CC(=O)N2		>50 µg/mL
Cc1ccc(NC(C#N)c2ccccc2OCc2ccccc2)cc1	absorbance	23.7 µM
COc1ccc(/C=N/NC(=O)c2cnc3cc(F)ccc3c2NC(CSc2ccccc2)CC(=O)N(C)C)cc1O	MTT	>62.5 µg/mL
CC(C)(C)c1cc(/C=N/N=C2\SC(CC(=O)O)C(=O)N2c2ccccc2)cc(C(C)(C)C)c1O		1000 µM
CCCOC(=O)CSc1nnc(-c2ncc([N+](=O)[O-])n2C)s1		>10 µg/mL
OC[C@H]1OC(c2c(-c3ccccc3)cc3c(Cl)cc(C(F)(F)F)cn23)[C@H](O)[C@@H]1O	MTT	172 µM
COc1ccc(-c2c(O)ccn([C@@H]3O[C@H](CO)[C@@H](O)[C@H]3O)c2=O)cc1	neutral red	>200 µM
O=C(CSc1nnc(-c2ccc([N+](=O)[O-])o2)s1)OCc1ccccc1		4.7 µg/mL
Clc1ccc(OC(Cn2cc(C3CCCCC3)nn2)c2ccc(Cl)cc2Cl)cc1	MTT	>12.5 µg/mL
CC[C@H](C)[C@H]1OC(=O)[C@H](C(C)C)N(C)C(=O)[C@@H]([C@@H](C)CC)OC(=O)[C@H](C(C)C)N(C)C(=O)[C@@H]([C@@H](C)CC)OC(=O)[C@H](C(C)C)NC1=O	absorbance	5.5 µM
CCCCc1nc(Cl)c(C2C(C(=O)Nc3ccccc3[N+](=O)[O-])=C(C)NC(C)=C2C(=O)Nc2ccccc2[N+](=O)[O-])[nH]1	MTT	9.1 µg/mL
CCc1nc2ccccc2n1CCSc1nnc(-c2ccc(Cl)cc2)o1	luminescence	35 µM
O=C1C(=O)c2c(nc3ccccn23)-c2ccccc21	MTT	>252 µM
Cc1c(CN2CCSCC2)cc(-c2ccccc2Cl)n1-c1ccccc1Cl		8 µg/mL
COc1ccc(-c2c(O)ccn([C@@H]3O[C@H](COC(C)=O)[C@@H](OC(C)=O)[C@H]3OC(C)=O)c2=O)cc1	neutral red	>400 µM
COc1cc2c(cc1OC)C1=NN(C(=O)Nc3ccc([N+](=O)[O-])cc3)C(c3ccccc3)C1C2	MTT	51.08 µM
O=C(c1ccccc1)c1nc2ccccc2s1		62 µg/mL
OCc1cc(COc2cc(C(F)(F)F)nc3c(C(F)(F)F)cccc23)on1		>128 µM
CCCCCCCC/C=N/NC(=O)c1cnc2cccc(C(F)(F)F)c2c1NC(CSc1ccccc1)CC(=O)N(C)C	MTT	>62.5 µg/mL
CCOC(=O)c1cc(COc2cc(C(F)(F)F)c3nc(C(F)(F)F)cc(OCc4cc(C(=O)OCC)no4)c3c2)on1		>128 µM
CCCCOc1ccc2nc(C)cc(N/N=C/c3ccc(OC)c4ccccc34)c2c1		5.2 µg/mL
CCOC(=O)C1=C(C)NC(=O)NC1c1cn(-c2ccccc2)nc1-c1ccc([N+](=O)[O-])cc1		>10 µg/mL
Cc1ccccc1-c1cc(CN2CCN(C)CC2)c(C)n1-c1ccc(F)cc1		2 µg/mL
COc1ccc(/C=N/Nc2ccnc3cc(Cl)ccc23)c2ccccc12		3.4 µg/mL
COC(=O)C1=C(C)NC(=S)NC1c1cn(-c2ccccc2)nc1-c1ccc([N+](=O)[O-])cc1		9.6 µg/mL
CCOC(=O)c1c([N+](=O)[O-])c(-c2ccccc2)n(COCCO)c1C		>300 µM
CC1=CC(=O)C=C(C/C=C(\C)CC/C=C(\C)CC/C=C(\C)CC[C@@H](C)C(C)(C)O)C1=O		35 µM
CCCCCc1nc2n(n1)C(c1ccc([N+](=O)[O-])cc1)CC(=O)N2		<50 µg/mL
c1ccc(CCN2CCN([C@@H](Cc3ccccc3)CN3CCCC3CN3CCNC[C@H]3Cc3ccccc3)C[C@@H]2Cc2ccccc2)cc1		0.97 µg/mL
CCCOC(=O)c1cc(COc2cc(C(F)(F)F)nc3c(C(F)(F)F)cccc23)on1		>128 µM
O=C(O)CC1S/C(=N\N=C\c2ccc(F)cc2)N(c2ccccc2)C1=O		2000 µM
Cc1ccc(N2C(=O)CCC2(CN)c2ccccc2OCc2ccccc2)cc1	absorbance	>100 µM
Cc1ccccc1-n1c(-c2ccc(F)cc2)cc(CN2CCSCC2)c1C		16 µg/mL
COC(=O)C1=C(C)NC(=O)NC1c1cn(-c2ccccc2)nc1-c1ccc(Br)cc1		>10 µg/mL
Cc1cccc(-c2cc(CN3CCSCC3)c(C)n2-c2ccc(F)cc2)c1		4 µg/mL
O=C(c1ccccc1)c1nc2cc(Cl)ccc2o1		4 µg/mL

5 of the rows above, restated:

SMILES,read by,result
O=C(CSc1nnc(-c2ccc([N+](=O)[O-])o2)s1)OCc1ccccc1,,4.7 µg/mL
O=c1cc(-c2ccc(-c3ccccc3)cc2)oc2ccccc12,,510 µg/mL
Cn1cc(NC(=O)c2cc(NC(=O)CCCCCCCCC(=O)Nc3cc(C(=O)Nc4cc(C(=O)NCCC(=N)N)n(C)c4)n(C)c3)cn2C)cc1C(=O)NCCC(=N)N,MTT,54.22 µM
c1csc(-c2cc3ccccn3c2)c1,MTT,90 µM
C[C@H]1C/C=C/C(O)C/C=C/C(=O)Cc2c(Cl)c(O)cc(O)c2C(=O)O1,,36 µM